Results of unrelated studies side by side (data: NIAID ChemDB).

Shared fields: growth or infection tests; organism: HIV-1; cell line: MT-4; read-out: EC50

ECn is the concentration giving n% inhibition of infection, replication or growth. Blank or dashed fields: not listed here. Neighbouring rows are from separate reports.

compound | strain | changes | read by | value
Cc1ncn(Nc2ccccc2)c1C | NL4-3 |  | cytopathic effect / MTT | >351 µM
NC[C@@H]1C[C@H](N)[C@H](n2cnc3c(N)ncnc32)O1 | IIIB |  | cytopathic effect / trypan blue | >500 µg/mL
CCc1c(Cc2cc(C)cc(C)c2)n(Cc2ccc(I)cc2)c(=O)[nH]c1=O | IIIB | K103N + Y181C | MTT | >43 µM
S=c1[nH]c2c(n1Nc1cccc(Cl)c1)CCCC2 | NL4-3 |  | cytopathic effect / MTT | >126 µM
CNc1nc2ccc(S(=O)(=O)N(CC(C)C)C[C@@H](O)[C@H](Cc3ccccc3)NC(=O)O[C@H]3CO[C@H]4OCC[C@H]43)cc2s1 | LAI |  | cytopathic effect / MTT | 0.001 µM
Cc1[nH]c(=S)n(Nc2cccc(Cl)c2)c1C | NL4-3 |  | cytopathic effect / MTT | >259 µM
Cc1ccc2sn(/N=C/c3ccccc3[N+](=O)[O-])c(=O)c2c1 |  | EFV-resistant (K103 V179D P225H) | MTT | >100 µM
Cc1nc(-c2ccc(S(=O)(=O)N(CC(C)C)C[C@@H](O)[C@H](Cc3ccccc3)NC(=O)O[C@H]3CO[C@H]4OCC[C@H]43)cc2)co1 | LAI |  | cytopathic effect / MTT | 0.004 µM
CCc1c(Cc2cc(C)cc(C)c2)n(COCC#Cc2ccc([N+](=O)[O-])cc2)c(=O)[nH]c1=O | IIIB | K103N + Y181C | MTT | >7 µM
Cc1ccc2sn(/N=C/c3ccc(F)cc3)c(=O)c2c1 |  | K103N + Y181C | MTT | >15 µM
C=CCOCn1c(Cc2ccccc2)c(CO)c(=O)[nH]c1=O | Clinical isolates | Y181C | MTT | >100 µM
COc1c(Cl)cc(C(=CCN[C@@H]2CC[C@@]3(C)[C@@H](CC[C@@H]4[C@@H]3CC[C@]3(C)[C@@H]([C@H](C)CCCC(C)C)CC[C@@H]43)C2)c2cc(Cl)c(OC)c(C(=O)O)c2)cc1C(=O)O | IIIB |  | cytopathic effect / MTT | >87 µM
NC[C@H]1O[C@@H](n2cnc3c(N)ncnc32)C[C@H]1N | IIIB |  | cytopathic effect / trypan blue | >500 µg/mL
CC(C)CCC[C@@H](C)[C@H]1CC[C@H]2[C@@H]3CC[C@H]4C[C@@H](CCC=C(c5cc(Cl)c(O)c(C(=O)O)c5)c5cc(Cl)c(O)c(C(=O)O)c5)CC[C@]4(C)[C@H]3CC[C@]12C | IIIB |  | cytopathic effect / MTT | 1.84 µM
CCc1c(Cc2ccccc2C)n(COC/C(Br)=C(\Br)c2ccccc2)c(=O)[nH]c1=O | IIIB | WT | MTT | 0.6 µM
CNc1nc2ccc(S(=O)(=O)N(CC(C)C)C[C@@H](O)[C@H](Cc3ccccc3)NC(=O)OC3COC4OCCC34)cc2s1 | LAI |  | cytopathic effect / MTT | 0.0005 µM
Cc1ccc2sn(/N=C/c3cccc(Cl)c3)c(=O)c2c1 |  | Y181C | MTT | >59 µM
CCc1c(Cc2cc(C)cc(C)c2)n(COCC#Cc2cccc(CO)c2)c(=O)[nH]c1=O | IIIB | EFV-resistant (K103R V179D P225H) | MTT | 7 µM
CCc1c(Cc2cc(C)cc(C)c2)n(Cc2ccc(C#CCF)cc2)c(=O)[nH]c1=O | Clinical isolates | Y181C | MTT | 0.6 µM
Cc1ccc2sn(/N=C/c3cccc(F)c3)c(=O)c2c1 |  | K103N + Y181C | MTT | >30 µM
CCN1C[C@H](C)N2C(=C(O)C3C(=O)N4Cc5cc(Cl)c(F)cc5OCCCCCS(=O)(=O)N(C)C(=N4)C32)C1=O | LAII(IIIB) |  |  | 0.8 µM
CC(=O)Nc1nc(-c2ccc(S(=O)(=O)N(CC(C)C)C[C@@H](O)[C@H](Cc3ccccc3)NC(=O)O[C@H]3CO[C@H]4OCC[C@H]43)cc2)cs1 | LAI |  | cytopathic effect / MTT | 0.005 µM
Nc1ncnc2c1ncn2[C@H]1C[C@@H](N)[C@@H](CO)O1 | IIIB |  | cytopathic effect / trypan blue | >500 µg/mL
CC(C)CN(C[C@@H](O)[C@H](Cc1ccccc1)NC(=O)O[C@H]1CO[C@H]2OCC[C@H]21)S(=O)(=O)c1ccc(-c2coc(N)n2)cc1 | LAI |  | cytopathic effect / MTT | 0.004 µM
Cc1[nH]c(=S)n(Nc2ccccc2)c1-c1ccccc1 | NL4-3 |  | cytopathic effect / MTT | >191 µM
Cc1cc(C#CCCO)cc(C)c1Oc1ccnc(Nc2ccc(C#N)cc2)n1 | IIIB | RES056 | MTT | >3.55 µM
Cc1c(O)cccc1C(=O)N[C@@H](Cc1ccccc1)[C@H](O)CN(CC(C)C)S(=O)(=O)c1ccc2nc(N)sc2c1 | LAI |  | cytopathic effect / MTT | 0.014 µM
Cc1ccc2sn(/N=C/c3ccc(O)cc3)c(=O)c2c1 |  | EFV-resistant (K103 V179D P225H) | MTT | >23 µM
CCc1[nH]c(=S)n(Nc2cccc(Cl)c2)c1-c1ccccc1 | NL4-3 |  | cytopathic effect / MTT | >38.96 µM
CN(C)c1ncnc2c1ncn2[C@@H]1O[C@H](CO)C[C@@H]1N=[N+]=[N-] | IIIB |  |  | >115 µg/mL
COc1c(O)cc2ccc(=O)oc2c1-c1c(O)ccc2ccc(=O)oc12 |  | N119 (Y1811C) | MTT | 6.7 µM
CCN1C[C@H](C)N2C(=C(O)C3C(=O)N4Cc5ccc(F)cc5OCCCCCN(C)C(=O)C(=N4)C32)C1=O | LAII(IIIB) |  |  | 4.36 µM
CNc1nc2ccc(S(=O)(=O)N(CC(C)C)C[C@@H](O)[C@H](Cc3ccccc3)NC(=O)O[C@H]3CCOC3)cc2s1 | LAI |  | cytopathic effect / MTT | 0.001 µM
Cc1ncn(Nc2ccccc2)c1-c1ccccc1 | IIIB |  | cytopathic effect / MTT | ≥11.67 µM
CC(C)CCC[C@@H](C)[C@H]1CC[C@H]2[C@@H]3CC[C@H]4C[C@@H](NC(=O)CC=C(c5cc(Cl)c(O)c(C(=O)O)c5)c5cc(Cl)c(O)c(C(=O)O)c5)CC[C@]4(C)[C@H]3CC[C@]12C | IIIB |  | cytopathic effect / MTT | 35.8 µM
CC(C)N1C[C@H](C)N2C(=C(O)C3C(=O)N4Cc5ccc(F)cc5OCCCCS(=O)(=O)N(C5CC5)C(=N4)C32)C1=O | LAII(IIIB) |  |  | 1 µM
CCc1c(Cc2cc(C)cc(C)c2)n(COCc2cn(Cc3c(F)cccc3F)nn2)c(=O)[nH]c1=O | IIIB | EFV-resistant (K103R V179D P225H) | MTT | 4 µM
Cc1cn([C@H]2C[C@H](N=[N+]=[N-])[C@@H](CO)O2)c(=O)[nH]c1=O |  | AZT-resistant (67N 70R 215F 219Q) | MTT | 0.3 µM
O=c1c2ccccc2sn1/N=C/c1ccc2c(c1)OCO2 |  | K103N + Y181C | MTT | >17 µM
CC(C)CN(C[C@@H](O)[C@H](Cc1ccccc1)NC(=O)O[C@H]1CCOC1)S(=O)(=O)c1ccc2nc(N)sc2c1 | F | PR-L10F M46I M71V I84V | cytopathic effect / MTT | 0.105 µM
CCc1c(Cc2cc(C)cc(C)c2)n(COCCF)c(=O)[nH]c1=O | IIIB | K103N + Y181C | MTT | 4 µM
Nc1ncnc2c1ncn2[C@@H]1O[C@H](CO)C[C@H]1N | IIIB |  | cytopathic effect / trypan blue | >100 µg/mL
COc1cccc(-c2nc(-c3ccc(S(=O)(=O)N(CC(C)C)C[C@@H](O)[C@H](Cc4ccccc4)NC(=O)O[C@H]4CO[C@H]5OCC[C@H]54)cc3)co2)c1 | LAI |  | cytopathic effect / MTT | 0.01 µM
C=CCOCn1c(Cc2ccccc2)c(CF)c(=O)[nH]c1=O |  |  | MTT | 6 µM
C=CCNc1nc(-c2ccc(S(=O)(=O)N(CC(C)C)C[C@@H](O)[C@H](Cc3ccccc3)NC(=O)COc3c(C)cc(Br)cc3C)cc2)cs1 | LAI |  | cytopathic effect / MTT | 39.8 µM
CCC[C@@]1(CCc2ccccc2)CC(O)=C([C@H](CC)c2cccc(NS(=O)(=O)c3ccc(C(F)(F)F)cn3)c2)C(=O)O1 | T13436 | V32I L76V | reporter gene | 180 nM
CCN1C[C@H](C)N2C(=C(O)C3C(=O)N4Cc5ccc(F)cc5OCCCCNC(=O)C(=N4)C32)C1=O | LAII(IIIB) |  |  | 3.67 µM
CNc1ncnc2c1ncn2[C@@H]1O[C@H](CO)C[C@@H]1N=[N+]=[N-] | IIIB |  |  | >101 µg/mL
CC(C)CCC[C@@H](C)[C@H]1CC[C@H]2[C@@H]3CC[C@H]4C[C@H](NC(=O)C=C(c5cc(Cl)c(O)c(C(=O)O)c5)c5cc(Cl)c(O)c(C(=O)O)c5)CC[C@]4(C)[C@H]3CC[C@]12C | IIIB |  | cytopathic effect / MTT | >24.4 µM
CCN1C[C@H](C)N2C(=C(O)C3C(=O)N4Cc5ccc(F)cc5OCCC(=O)N5CCN(CC5)C(=N4)C32)C1=O | LAII(IIIB) |  |  | 3.01 µM
CCOC(=O)CCc1nc(-c2ccc(S(=O)(=O)N(CC(C)C)C[C@@H](O)[C@H](Cc3ccccc3)NC(=O)O[C@H]3CO[C@H]4OCC[C@H]43)cc2)co1 | LAI |  | cytopathic effect / MTT | 0.02 µM
Cc1cccc(Nn2cnc(C)c2-c2ccccc2)c1 | SO561945 (RT K103N Y181C) | RT-K103N Y181C | cytopathic effect / MTT | 3.99 µM

Again, the opening 5 rows:

compound,strain,changes,read by,value
Cc1ncn(Nc2ccccc2)c1C,NL4-3,,cytopathic effect / MTT,>351 µM
NC[C@@H]1C[C@H](N)[C@H](n2cnc3c(N)ncnc32)O1,IIIB,,cytopathic effect / trypan blue,>500 µg/mL
CCc1c(Cc2cc(C)cc(C)c2)n(Cc2ccc(I)cc2)c(=O)[nH]c1=O,IIIB,K103N + Y181C,MTT,>43 µM
S=c1[nH]c2c(n1Nc1cccc(Cl)c1)CCCC2,NL4-3,,cytopathic effect / MTT,>126 µM
CNc1nc2ccc(S(=O)(=O)N(CC(C)C)C[C@@H](O)[C@H](Cc3ccccc3)NC(=O)O[C@H]3CO[C@H]4OCC[C@H]43)cc2s1,LAI,,cytopathic effect / MTT,0.001 µM